Here are results for one compound from ChEMBL document CHEMBL1157539, “Thousands of chemical starting points for antimalarial lead identification” (Nature, 2010).

Assay [1] concerns Plasmodium falciparum. The experiment in a line: GSK_TCMDC: Inhibition of Plasmodium falciparum Dd2 in whole red blood cells, using parasite LDH activity as an index of growth. Test compounds present at 2uM. Format: functional.
For assay [2], the system named is Plasmodium falciparum. The assay is described as follows: GSK_TCMDC: Inhibition of Plasmodium falciparum 3D7 LDH activity, using an LDH reporter assay. Test compounds present at 2uM. In kind it is functional, organism-based.

Only a part is listed here, and it is no random draw.

For the compound `COc1cc(C(=O)NC(SC2=NCCS2)C(Cl)(Cl)Cl)cc(OC)c1OC` (configuration not stated), the inhibition (as a rule, the change of the read-out against control, counted positive when it falls) is 50% in assay [1] and 1% in assay [2].
